Values from PubChem BioAssay AID1259414 (Drosophila RNAi Screening Center, 2018)

Purpose: 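Fly genes that alter Wolbachia amount inside host cells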 (primary screen)
Cells: Drosophila JW18 cells infected with Wolbachia
Knock-down reagent: long dsRNA against Drosophila genes, 0.25 µg dsRNA per well of a 384-well plate
Duration: 5 days
Conditions: cells persistently infected with Wolbachia before knock-down; no added drug
Measured: 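Imaged fluorescence in situ signal for Wolbachia 23S rRNA per DAPI-counted host cell, given as a robust z-score within each plate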
Direction: Wolbachia per cell robust z: higher = more Wolbachia per host cell than the plate typical
Call rule: 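Hit when robust z is 1.5 or more, or -1.5 or less, in at least two of three replicates; excludes dsRNAs with several or no targets, genes not expressed in JW18 and well A1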
The screen tested about 24,000 reagents; below is a random part of those with a known target gene and a result. In the full data, about 1,210 (5%) got an active call. 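Inactive calls also include excluded dsRNAs with several or no targets, genes unexpressed in JW18, and well A1, regardless of score.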 Reagents against one gene are numbered here. A plus sign joins genes that one reagent is predicted to hit.

For CG1409, the values are Wolbachia per cell robust z, rep 1 = 0.712; Wolbachia per cell robust z, rep 2 = -5.67; Wolbachia per cell robust z, rep 3 = 0.395; inactive. Knock-down of Dnaaf5 resulted in: Wolbachia per cell robust z, rep 1 = -2.14; Wolbachia per cell robust z, rep 2 = -0.767; Wolbachia per cell robust z, rep 3 = 0.771; inactive. Against ms(3)76Ba the deposit lists Wolbachia per cell robust z, rep 1 = -0.243; Wolbachia per cell robust z, rep 2 = 0.643; Wolbachia per cell robust z, rep 3 = -0.0796; inactive. Against Pcf11 the deposit lists Wolbachia per cell robust z, rep 1 = 1.97; Wolbachia per cell robust z, rep 2 = 3.36; Wolbachia per cell robust z, rep 3 = 3.29; active. CG8613 #1 gave Wolbachia per cell robust z, rep 1 = -0.206; Wolbachia per cell robust z, rep 2 = -1.69; Wolbachia per cell robust z, rep 3 = -0.578; inactive. With knock-down of CG8613 #2, the record shows Wolbachia per cell robust z, rep 1 = -0.524; Wolbachia per cell robust z, rep 2 = 0.844; Wolbachia per cell robust z, rep 3 = -0.216; inactive.

CG1077 #1 scored Wolbachia per cell robust z, rep 1 = 0.95; Wolbachia per cell robust z, rep 2 = -1.16; Wolbachia per cell robust z, rep 3 = 0.503; inactive. After knock-down of CG1077 #2, the screen gave Wolbachia per cell robust z, rep 1 = 0.708; Wolbachia per cell robust z, rep 2 = 1.79; Wolbachia per cell robust z, rep 3 = 0.402; inactive. Knock-down of Cpr62Bb #1 resulted in: Wolbachia per cell robust z, rep 1 = -1.61; Wolbachia per cell robust z, rep 2 = 0.256; Wolbachia per cell robust z, rep 3 = -0.00493; inactive. Silencing of Cpr62Bb #2 gave: Wolbachia per cell robust z, rep 1 = -2.6; Wolbachia per cell robust z, rep 2 = 0.434; Wolbachia per cell robust z, rep 3 = -0.688; inactive. MED27 showed Wolbachia per cell robust z, rep 1 = 0.295; Wolbachia per cell robust z, rep 2 = 0.4; Wolbachia per cell robust z, rep 3 = -0.987; inactive. Silencing of Cyp4ac2 resulted in: Wolbachia per cell robust z, rep 1 = 0.148; Wolbachia per cell robust z, rep 2 = 0.387; Wolbachia per cell robust z, rep 3 = -2.91; inactive.

With knock-down of CG6421 #1, the record shows Wolbachia per cell robust z, rep 1 = 0.446; Wolbachia per cell robust z, rep 2 = -0.763; Wolbachia per cell robust z, rep 3 = 0.174; inactive. CG6421 #2 showed Wolbachia per cell robust z, rep 1 = 0.683; Wolbachia per cell robust z, rep 2 = 0.731; Wolbachia per cell robust z, rep 3 = 1.18; inactive. For CG8461, the values are Wolbachia per cell robust z, rep 1 = 0.797; Wolbachia per cell robust z, rep 2 = -0.328; Wolbachia per cell robust z, rep 3 = -3.34; inactive.

Entries listed so far called active, once more:
Pcf11 → Wolbachia per cell robust z, rep 1 = 1.97; Wolbachia per cell robust z, rep 2 = 3.36; Wolbachia per cell robust z, rep 3 = 3.29; Call = active

More reagents:
CG11892 scored Wolbachia per cell robust z, rep 1 = -2.25; Wolbachia per cell robust z, rep 2 = 0.563; Wolbachia per cell robust z, rep 3 = 2.5; inactive. Knock-down of Lrch #1 gave: Wolbachia per cell robust z, rep 1 = -0.929; Wolbachia per cell robust z, rep 2 = -3.29; Wolbachia per cell robust z, rep 3 = 0.0498; inactive. For Lrch #2, the values are Wolbachia per cell robust z, rep 1 = -0.237; Wolbachia per cell robust z, rep 2 = 1.09; Wolbachia per cell robust z, rep 3 = 1.02; inactive. With knock-down of CCT8 #1 the results were Wolbachia per cell robust z, rep 1 = 1.53; Wolbachia per cell robust z, rep 2 = 1.24; Wolbachia per cell robust z, rep 3 = 1; inactive. Against CCT8 #2, the entry reads Wolbachia per cell robust z, rep 1 = 0.911; Wolbachia per cell robust z, rep 2 = 0.437; Wolbachia per cell robust z, rep 3 = 0.887; inactive. Silencing of cd came out at: Wolbachia per cell robust z, rep 1 = -0.172; Wolbachia per cell robust z, rep 2 = -1.19; Wolbachia per cell robust z, rep 3 = 0.329; inactive.

Depletion of S #1 resulted in: Wolbachia per cell robust z, rep 1 = 0.499; Wolbachia per cell robust z, rep 2 = 0.302; Wolbachia per cell robust z, rep 3 = 0.443; inactive. S #2 showed Wolbachia per cell robust z, rep 1 = 0.916; Wolbachia per cell robust z, rep 2 = 0.643; Wolbachia per cell robust z, rep 3 = 1.05; inactive. pins scored Wolbachia per cell robust z, rep 1 = 0.447; Wolbachia per cell robust z, rep 2 = 0.688; Wolbachia per cell robust z, rep 3 = -1.49; inactive. After knock-down of CG34105 + CG12491 #1, the screen gave Wolbachia per cell robust z, rep 1 = 0.488; Wolbachia per cell robust z, rep 2 = 0.715; Wolbachia per cell robust z, rep 3 = 0.293; inactive. CG34105 + CG12491 #2 scored Wolbachia per cell robust z, rep 1 = -0.61; Wolbachia per cell robust z, rep 2 = -1.35; Wolbachia per cell robust z, rep 3 = -1.36; inactive. Silencing of Ctns gave: Wolbachia per cell robust z, rep 1 = 0.544; Wolbachia per cell robust z, rep 2 = 0.269; Wolbachia per cell robust z, rep 3 = 1.16; inactive.

Depletion of CG15375 #1 gave: Wolbachia per cell robust z, rep 1 = 0.765; Wolbachia per cell robust z, rep 2 = -0.209; Wolbachia per cell robust z, rep 3 = 0.849; inactive. With knock-down of CG15375 #2, the screen gave Wolbachia per cell robust z, rep 1 = -0.8; Wolbachia per cell robust z, rep 2 = -1.18; Wolbachia per cell robust z, rep 3 = -1.21; inactive. With knock-down of CG14937, the record shows Wolbachia per cell robust z, rep 1 = 0.429; Wolbachia per cell robust z, rep 2 = 0.511; Wolbachia per cell robust z, rep 3 = 0.221; inactive.
